A mixed list of measured activities; the numbers were collected in NIAID ChemDB.

Shared fields: toxicity to cultured cells; cell line: VERO; read-out: CC50

Conditions beyond the fields shown may differ between rows.

{"structure": "Nc1ccn([C@@H]2S[C@H](CO)C=C2F)c(=O)n1", "result": ">100 µM"}
{"structure": "COc1cccc2c1[n+]([O-])c1cccc(O)c1[n+]2[O-]", "result": "20 µg/mL"}
{"structure": "Clc1ccc(/C(Cn2ccnc2)=N\\OCc2ccc(-c3ccccc3)cc2)c(Cl)c1", "result": "6 µg/mL"}
{"structure": "O=c1c2cccc(Cl)c2[nH]c2cc(O)cc(O)c12", "result": "52 µM"}
{"structure": "O=C(O)c1ccc(CN2CCCC[C@H]2[C@@H](O)c2cc(C(F)(F)F)nc3c(C(F)(F)F)cccc23)cc1", "result": "98 µM"}
{"structure": "Nc1ncnc2c1ncn2[C@H]1O[C@H](CO)[C@@H](F)[C@@H]1F", "result": ">100 µM"}
{"structure": "Nc1ncnc2c1ncn2[C@@H]1C=C(CO)[C@@H](O)[C@@H]1O", "result": ">10 µg/mL"}
{"structure": "CC(C)OC(=O)[C@H](C)NP(=O)(OC[C@H]1O[C@@H](n2ccc(N)nc2=O)C(F)(F)C1(F)F)Oc1ccccc1", "result": ">100 µM"}
{"structure": "COc1cc(/C=N/NC(=O)Cc2ccccc2Nc2c(Cl)cccc2Cl)ccc1O", "result": ">22.56 µM"}
{"structure": "O=C(O)CP(=O)(O)O", "result": ">500 µM"}
{"structure": "Cc1cn([C@@H]2O[C@H](COP(=O)(N[C@@H](C)C(=O)OC(C)C)Oc3ccccc3)C(F)(F)C2(F)F)c(=O)[nH]c1=O", "result": ">100 µM"}
{"structure": "O=C(O)CP(=O)(O)O", "result": "172 µg/mL"}
{"structure": "CC(C)O[C@@H]1[C@H](OC(C)C)[C@@H](COS(=O)(=O)NC(=O)O[C@@H]2C[C@@H](OC(=O)c3ccccc3)[C@H](OC(=O)c3ccccc3)[C@@H](COC(=O)c3ccccc3)O2)O[C@H]1n1ccc(=O)[nH]c1=O", "result": "250 µg/mL"}
{"structure": "N#Cc1ccn2c(-c3ccc(Cl)cc3)c(-c3ccc(Cl)cc3)c(Br)c2c1", "result": "8.62 µg/mL"}
{"structure": "Nc1ncnc2c1ncn2C[C@H]1C[C@H]1[C@H](O)CO", "result": ">100 µM"}
{"structure": "Cc1ccc(-c2c(C(O)c3ccccc3)c3cc(C#N)ccn3c2-c2ccc(C)cc2)cc1", "result": "5.61 µg/mL"}
{"structure": "CCS(=O)(=O)O.OC1CC2CCC(C1)N2CCCN1c2ccccc2Sc2ccc(Cl)cc21", "result": ">500 µg/mL"}
{"structure": "Nc1ccn([C@H]2O[C@@H](CO)C=C2F)c(=O)n1", "result": ">100 µM"}
{"structure": "COc1cc2ccnc3c2c(c1OS(=O)(=O)c1ccccc1)N(C)C=C3", "result": "27.3 µM"}
{"structure": "CC(C)c1cc(=O)c2cc3[nH]c4ccccc4c3cc2[nH]1", "result": "7.4 µg/mL"}
{"structure": "Clc1ccc(/C(Cn2ccnc2)=N\\OC/C=C/c2ccccc2)cc1", "result": "6 µg/mL"}
{"structure": "O=c1[nH]cnc2c1ncn2C[C@H]1C[C@H]1CO", "result": ">100 µM"}
{"structure": "CC(C)OC(=O)[C@H](C)NP(=O)(OC[C@H]1O[C@@H](n2cnc3c(=O)[nH]c(N)nc32)C(F)(F)C1(F)F)Oc1ccccc1", "result": ">100 µM"}
{"structure": "CC(Sc1ncnc2c1cnn2COCCO)C(N)=O", "result": ">400 µg/mL"}
{"structure": "O=C(O)c1cn(C2CC2)c2cc(N3CCN(C(=O)Cc4ccccc4Nc4c(Cl)cccc4Cl)CC3)c(F)cc2c1=O", "result": ">16.4 µM"}
{"structure": "O=c1[nH]cnc2c1ncn2O[C@H]1CO[C@@H](CO)O1", "result": ">100 µg/mL"}
{"structure": "CCc1cn([C@H]2C[C@H](O)[C@@H](CO)O2)c(=O)[nH]c1=O", "result": "8 µg/mL"}
{"structure": "CC(C)OC1[C@H](n2ccc(=O)[nH]c2=O)O[C@H](COS(=O)(=O)NC(=O)NC[C@H]2O[C@H](COCc3ccccc3)[C@@H](OCc3ccccc3)[C@H](OCc3ccccc3)[C@H]2OCc2ccccc2)[C@H]1OC(C)C", "result": "100 µg/mL"}
{"structure": "O=[N+]([O-])c1ccc(/C=N\\O)o1", "result": "11.5 µg/mL"}
{"structure": "Nc1ncnc2c1ncn2[C@@H]1O[C@H](CO)[C@@H](F)[C@@H]1F", "result": ">100 µM"}
{"structure": "Cc1c2cnccc2c(C)c2c1c1ccccc1n2CCOC(=O)c1ccccc1", "result": "4.44 µg/mL"}
{"structure": "FC(F)(F)c1cc(-n2ccnc2)c2cccc(C(F)(F)F)c2n1", "result": ">128 µM"}
{"structure": "CCCCC(O)c1c(-c2ccccc2)c(-c2ccccc2)n2ccc(C#N)cc12", "result": "7.56 µg/mL"}
{"structure": "CC1(C)Oc2cc3oc(C(=O)O)cc(=O)c3cc2-c2ccccc21", "result": "262.3 µg/mL"}
{"structure": "C[C@]1(CO)[C@@H](Cn2cnc3c(=O)[nH]c(N)nc32)C1(F)F", "result": ">100 µM"}
{"structure": "Nc1nccc2c1ncn2[C@@H]1C[C@H](CO)[C@@H](O)[C@H]1O", "result": ">150 µg/mL"}
{"structure": "O=C(Cc1ccccc1Nc1c(Cl)cccc1Cl)N/N=C(\\c1ccccc1)c1ccc(Br)cc1", "result": ">18.07 µM"}
{"structure": "COc1ccc2c(c1)[n+]([O-])c(C(N)=O)c(N)[n+]2[O-]", "result": "13.29 µg/mL"}
{"structure": "CC1SC2(CCCCC2)N(NC(=O)Cc2csc3nc(-c4ccccc4)cn23)C1=O.O.O", "result": ">10 µg/mL"}
{"structure": "COc1cc2cc[n+](CCC(C)C)c3c2c(c1OC)NC=C3", "result": "17.2 µM"}
{"structure": "Nc1nc2c(ncn2[C@@H]2O[C@H](CO)C(F)(F)C2(F)F)c(=O)[nH]1", "result": ">100 µM"}
{"structure": "Clc1ccc(/C(Cn2ccnc2)=N/OCc2ccc(-c3ccccc3)cc2)cc1", "result": "1.5 µg/mL"}
{"structure": "O=C1NC(=Nc2ccc(Cl)cc2Cl)N/C1=C\\c1ccc(Cl)cc1Cl", "result": "23 µg/mL"}
{"structure": "O=C(CCl)NNC1=Nc2ccc(Cl)cc2SC1", "result": "0.89 µg/mL"}
{"structure": "O=C(Nc1ccc(Cl)cc1)N1CCCC[C@H]1[C@@H](O)c1cc(C(F)(F)F)nc2c(C(F)(F)F)cccc12", "result": "10 µM"}
{"structure": "Nc1ncnc2c1ncn2[C@@H]1C=C(CO)[C@@H](O)C1", "result": ">5 µg/mL"}
{"structure": "CC(=O)Oc1c(C)c(O)c(C(C)=O)c2c1C1(C)C(=O)C(C(C)=O)=C(O)C=C1O2", "result": "7.91 µg/mL"}
{"structure": "OC[C@@H]1OC[C@@H](On2cnc3c(Cl)ncnc32)O1", "result": ">100 µg/mL"}
{"structure": "CC(=O)OC[C@H]1O[C@H](OC(=O)NS(=O)(=O)OC[C@H]2O[C@@H](n3ccc(=O)[nH]c3=O)[C@H](OC(C)C)[C@@H]2OC(C)C)[C@H](OC(C)=O)[C@@H](OC(C)=O)[C@@H]1OC(C)=O", "result": ">100 µg/mL"}
{"structure": "CCCCCCCCCCCN1C=Cc2cc(OC)c(O)c3c2c1cc[n+]3CCCCCCCCCCC", "result": "9.1 µM"}
{"structure": "Cc1cn(C[C@H]2C[C@H]2[C@H](O)CO)c(=O)[nH]c1=O", "result": ">100 µM"}
{"structure": "CC[C@@]1(O)C[C@H](O[C@H]2C[C@H](N(C)C)[C@H](O[C@H]3C[C@H](O)[C@H](O[C@H]4CCC(=O)[C@H](C)O4)[C@H](C)O3)[C@H](C)O2)c2c(cc3c(c2O)C(=O)c2c(O)cccc2C3=O)[C@H]1C(=O)OC", "result": "0.01 µM"}
{"structure": "OC[C@H]1O[C@@H](On2cnc3c(Cl)ncnc32)CS1", "result": ">100 µg/mL"}
{"structure": "CCN(CC)Cc1cc(Nc2nc(/C=C/c3ccc(Cl)cc3)nc(Cl)c2-c2ccc(Cl)cc2)ccc1O", "result": "5.12 µg/mL"}
{"structure": "Nc1nc(=O)n([C@@H]2CC[C@H](CO)O2)cc1F", "result": ">125 µM"}
{"structure": "CC(Sc1ncnc2c1cnn2COCC(O)CO)C(N)=O", "result": ">400 µg/mL"}
{"structure": "O=C1NC(=NCc2ccccc2)N/C1=C\\c1ccc(Cl)cc1", "result": "31 µg/mL"}
{"structure": "CCC1CCC2(CC1)SC(C)C(=O)N2NC(=O)Cc1csc2nc(-c3ccc(Cl)cc3)cn12", "result": "5.5 µg/mL"}
{"structure": "COc1cc2ccnc3c2c(c1OC)N(CCC(C)C)C=C3", "result": "17.6 µM"}
{"structure": "COc1c(C)c2c3c4c1C(=O)C(=CC4=O)NC(=O)/C(C)=C\\C=C\\[C@H](C)[C@@H]1OC(C)(C)O[C@@H]([C@@H](C)[C@H](OC(C)=O)[C@H](C)[C@@H](OC)/C=C/O[C@@](C)(O2)C3=O)[C@@H]1C", "result": "4.32 µg/mL"}
{"structure": "Nc1ccn([C@H]2C=C(F)[C@@H](CO)O2)c(=O)n1", "result": ">100 µM"}
{"structure": "Nc1ncnc2c1ncn2C[C@H](O)CO", "result": ">5 µg/mL"}
{"structure": "Nc1ccn([C@@H]2O[C@H](CO)C=C2F)c(=O)n1", "result": ">100 µM"}
{"structure": "CN1c2ccc(C3N(C(=O)C(F)(F)F)C=CN3C(=O)C(F)(F)F)cc2Sc2cc(C3N(C(=O)C(F)(F)F)C=CN3C(=O)C(F)(F)F)ccc21", "result": ">10 µg/mL"}
{"structure": "CN(C)c1ccc(/C=N/NC(=O)Cc2ccccc2Nc2c(Cl)cccc2Cl)cc1", "result": ">22.65 µM"}
{"structure": "Nc1c(C(=O)Nc2ccccc2)[n+]([O-])c2ccccc2[n+]1[O-]", "result": "3.53 µg/mL"}
{"structure": "O=C(NCc1ccc(Cl)cc1)c1c[nH]c2c(F)cc(CCCO)cc2c1=O", "result": ">50 µM"}
{"structure": "S=C(Nc1ccc(Cl)cc1)c1ccccn1", "result": "2.88 µg/mL"}
{"structure": "CCCCCCCCS(=O)(=O)Oc1c(OC)cc2ccnc3c2c1N(C)C=C3", "result": "13.4 µM"}
{"structure": "O=[N+]([O-])c1cnc(Sc2cncc[n+]2[O-])s1", "result": "5.03 µg/mL"}
{"structure": "C[C@]1(CO)[C@H](Cn2cnc3c(=O)[nH]c(N)nc32)C1(F)F", "result": ">100 µM"}
{"structure": "O=C(NCc1ccc(Cl)cc1)c1c[nH]c2ccc(C#CCO)cc2c1=O", "result": "48.9 µM"}
{"structure": "c1ccc(/C(Cn2ccnc2)=N/OCc2cccc3ccccc23)cc1", "result": "6 µg/mL"}
{"structure": "Nc1ncnc2c1ncn2[C@@H]1C[C@@H](O)[C@@H](O)[C@H]1O", "result": "400 µg/mL"}
{"structure": "Cc1ccc(NC2=CC(=O)C(=O)c3ccccc32)cc1", "result": "2.28 µg/mL"}
{"structure": "Fc1ccc(/C(Cn2ccnc2)=N\\OCc2ccccc2)cc1", "result": "32 µg/mL"}
{"structure": "CC1CC(c2ccc3ccccc3c2)NCCNC(c2ccc3ccccc3c2)CC(C)NCCN1", "result": "1.69 µg/mL"}
{"structure": "Nc1ccn([C@H]2C[C@@H](CO)[C@H](O)[C@@H]2O)c(=O)n1", "result": ">100 µM"}
{"structure": "CC1CCC2(CC1)SC(C)C(=O)N2NC(=O)Cc1csc2nc(-c3ccccc3)cn12", "result": ">10 µg/mL"}
{"structure": "Nc1ccn(C[C@H]2C[C@H]2CO)c(=O)n1", "result": ">100 µM"}
{"structure": "Nc1ncnc2c1ncn2[C@@H]1O[C@H](CO)C(F)(F)C1(F)F", "result": ">100 µM"}
{"structure": "COc1cc2ccnc3c2c(c1OCCCCCCOc1c(OC)cc2ccnc4c2c1N(C)C=C4)N(C)C=C3", "result": "1.2 µM"}
{"structure": "CO[C@H]1/C=C/O[C@@]2(C)Oc3c(C)c(O)c4c(O)c(c(/C=N/N5CCN(Cc6ccccc6)CC5)c(O)c4c3C2=O)NC(=O)/C(C)=C\\C=C\\[C@H](C)[C@H](O)[C@@H](C)[C@@H](O)[C@@H](C)[C@H](OC(C)=O)[C@@H]1C", "result": "14.16 µg/mL"}
{"structure": "CCCCCCCN1C=Cc2nccc3cc(OC)c(OC)c1c23", "result": "3.7 µM"}
{"structure": "CC(=O)Oc1c(C)c2c(O)c3c1C1=C(OCOC1=C(C)C3=O)/C(C)=C/[C@@](C)(O)[C@H](O)[C@@H](C)[C@@H](O)[C@H](C(=O)O)[C@H](O)[C@H](C)C(O)[C@H](C)/C=C\\C=C(/C)C(=O)N2", "result": "21 µg/mL"}
{"structure": "CCCCCC[n+]1ccc2cc(OC)c(OC)c3c2c1C=CN3", "result": "11.8 µM"}
{"structure": "CCC(Sc1ncnc2c1cnn2CCCCO)C(N)=O", "result": ">400 µg/mL"}
{"structure": "CC(=O)N[C@H]1[C@@H](OC(=O)NS(=O)(=O)OC[C@H]2O[C@@H](n3ccc(=O)[nH]c3=O)[C@H](OC(C)C)[C@@H]2OC(C)C)O[C@H](COC(=O)c2ccccc2)[C@@H](OC(=O)c2ccccc2)[C@@H]1OC(=O)c1ccccc1", "result": "100 µg/mL"}
{"structure": "[O-][n+]1c2ccccc2[n+]([O-])c2c3ccccc3[nH]c21", "result": "6.05 µg/mL"}

6 of the rows above, restated:

structure,result
O=C1NC(=Nc2ccc(Cl)cc2Cl)N/C1=C\c1ccc(Cl)cc1Cl,23 µg/mL
FC(F)(F)c1cc(-n2ccnc2)c2cccc(C(F)(F)F)c2n1,>128 µM
CCCCCCCCS(=O)(=O)Oc1c(OC)cc2ccnc3c2c1N(C)C=C3,13.4 µM
Nc1ncnc2c1ncn2[C@@H]1C=C(CO)[C@@H](O)C1,>5 µg/mL
Clc1ccc(/C(Cn2ccnc2)=N/OCc2ccc(-c3ccccc3)cc2)cc1,1.5 µg/mL
Nc1ncnc2c1ncn2[C@H]1O[C@H](CO)[C@@H](F)[C@@H]1F,>100 µM

CCn is the concentration with n% toxicity to the cells.